The subject of assay [1] is Plasmodium falciparum. The assay is described as follows: Antimalarial activity in vitro. The class given is functional, organism-based.
The subject of assay [2] is Plasmodium falciparum. As to the kind of experiment: In vitro antimalarial activity against Plasmodium falciparum. The assay is classed as functional, organism-based.

Broadly, the EC50 is the concentration giving half of the maximal effect. `CCCCC1(CCCC)OOCCCOO1` registered a concentration for a half-maximal effect (EC50) with Plasmodium falciparum [1] of 0.16 µM. In the assay with Plasmodium falciparum [2], `COOC1(OOC)CCC(C(C)(C)C)CC1` came in with an EC50 of 25 µM. In the assay on Plasmodium falciparum [2], `CCCCC(CCCC)(OOC)OOC` displayed a concentration giving a half-maximal response (EC50) of 4.8 µM.

For the origin of these results see ChEMBL document CHEMBL1135896, “Synthesis and notable antimalarial activity of acyclic peroxides, L-(alkyldioxy)-L-(methyldioxy)cyclododecanes” (J Med Chem, 2002).
